{"source": "patent US20110112032A1", "about": "“Regulation of Brain Natriuretic Peptide and Catecholamines for the Treatment of Cardiovascular Diseases” (priority 2005, published 2011)", "tested_on": "intrinsic cardiac adrenergic cells", "data": [{"substance": "w-Conotoxin", "values": [{"measurement": "effect on [Ca2+]i transients of intrinsic cardiac adrenergic cells", "value": "did not affect"}]}]}
